Source: ChEMBL document CHEMBL4406897 (Bioorg Med Chem, 2019)

Legend:
Plasmodium falciparum [1] = test: Ratio of compound Ki to pyrimethamine Ki for competitive inhibition of Plasmodium falciparum dihydrofolate reductase N51I/C59R/S108N/I164L quadruple mutant expressed in Escherichia coli BL21(DE3)pLysS using dihydrofolate as substrate
Plasmodium falciparum [2] = test: Selectivity ratio of Ki for Plasmodium falciparum dihydrofolate reductase N51I/C59R/S108N/I164L quadruple mutant expressed in Escherichia coli BL21(DE3)pLysS to Ki for wild type Plasmodium falciparum TM4/8.2 dihydrofolate reductase expressed in Escherichia coli BL21(DE3)pLysS

| SMILES | Ratio Ki (Plasmodium falciparum [1]) | Ratio Ki (Plasmodium falciparum [2]) |
| --- | --- | --- |
| Cl.Nc1nc(N)c(-c2cccc(Cl)c2)c(CCCOc2ccccc2)n1 | 0.003 | 4.83 |
| Cl.Nc1nc(N)c(-c2ccccc2)c(CCCCCOc2ccccc2)n1 | 0.009 | 12 |
| Cl.Nc1nc(N)c(-c2ccccc2)c(CCCCOc2cccc(OCC(=O)O)c2)n1 | 0.003 | 2.08 |
